Structures are written as SMILES.

In the data set the test system is T. gondii RH strain tachyzoites. The experiment in a line: In vitro anti-proliferation assay (qPCR of 529-bp repeat). Format: cell-based, Toxoplasma gondii. Conditions: compared with 9-methyl-harmine (SI = 17.2). Here is the method: The antiproliferative effects of NBZ023 and NBZ035 on T. gondii were determined via qPCR, which was performed by using a QuantStudio 3 Flex real-time PCR system (Life Technologies). Cells were infected with tachyzoites (2 × 10^5 per well) for 6 h, then treated with NBZ023, NBZ035 (0.24‒30 μM) or pyrimethamine (0.4 μM) for 24 h, and washed twice with PBS. Infected or uninfected cells that were cultured with DMEM (1% FBS) were used as the parasite or the host cell control group, respectively. Total genomic DNA from the cell samples was isolated with the DNAiso reagent (Takara), and the levels of the 529-bp repeat sequence of T. gondii were measured via qPCR as before.
On the technique in general: Quantitative PCR measures a nucleic acid by following its amplification.

Regarding `O=C(Nc1ccccc1)c1ccc2[nH]c3c(C(=O)c4cccc(Br)c4)nccc3c2c1` [NBZ023], the “SI greater than that of 9-methyl-harmine” value came out at 18 fold.
As for `O=C(Nc1ccccc1)c1ccc2[nH]c3c4[n+](ccc3c2c1)-c1ccccc1C4=O` [NBZ035], the “SI greater than that of 9-methyl-harmine” value was “threefold”.

The record behind these values is article PMC12750888, “Design, synthesis, and anti-Toxoplasma gondii evaluation of β-carboline derivatives” (Parasites & Vectors, 2025).
